These results are taken from patent EP4282435A1, “FORMULATIONS OF ACTIVE PHARMACEUTICAL INGREDIENTS AND EXCIPIENTS IN ICELLS VIA HYDROPHOBIC ION PAIRING” (Danmarks Tekniske Universitet, priority 2022, dated 2023).

A short description of this data set: Fluorescence spectroscopy of ICG and ICG HIP complexes in ethanol. Format: physicochemical.
Setting [1] is: free molecule or in a HIP complex.

In the case of `CC1(C)C(/C=C/C=C/C=C/C=C2\N(CCCCS(=O)(=O)O)c3ccc4ccccc4c3C2(C)C)=[N+](CCCCS(=O)(=O)[O-])c2ccc3ccccc3c21` [ICG, indocyanine green], under setting [1], the emission maxima came out at 822 nm and the excitation maxima came to 785 nm. For the same compound, the “concentration at maximum emission intensity” value (range 0.0006 - 1 mg/mL, self-quenching above) came out at 0.1 mg/mL.
